Measured values from several laboratories, pooled; numbers as filed in NIAID ChemDB.

Shared fields: tests in culture; species: Aspergillus flavus; measure: inhibition

Rows are shuffled and stem from different studies. Inhibition is in % at the dose shown (toxicity tests: loss of growth or viability). Blank or dashed fields: not listed here.

structure	strain	tested at	read by	value
CCOc1ccc(C2=NN(c3ccccc3)C(c3ccc(SC)cc3)C2)cc1	NCIM 594	2000 µg/mL	broth dilution	38.25%
COc1c(O)cc2c(c1C(C)C)C(=O)C(C)=C(C1=C(C)C(=O)c3c(cc(O)c(OC)c3C(C)C)C1=O)C2=O	ATCC 96044	100 µg/mL	-	15.2%
Cc1cccc(C=NNC(N)=S)n1	MTC 00040	500 µg/mL	broth dilution	100%
COc1c(O)c(C=O)c2c(c1C(C)C)C(=O)C(C)=C(C1=C(C)C(=O)c3c(c(C=O)c(O)c(OC)c3C(C)C)C1=O)C2=O	ATCC 96044	100 µg/mL	-	52.9%
CSc1ccc(C2CC(c3ccccc3Cl)=NN2c2ccccc2)cc1	NCIM 594	2000 µg/mL	broth dilution	88.22%
O=S(=O)(Nc1ncccn1)c1ccc(N=Cc2c[nH]c3ccccc23)cc1	-	200 µg/mL	-	25%
C/C(=N\c1n[nH]c(N)n1)c1ccccn1.C/C(=N\c1n[nH]c(N)n1)c1ccccn1.[O]=[V+2]	-	200 µg/mL	agar diffusion / agar	63%
Cc1cc(NS(=O)(=O)c2ccc(N=Cc3c[nH]c4ccccc34)cc2)no1	-	200 µg/mL	-	45%
COc1c(O)cc2c(O)c(-c3c(C)c(=O)c4c(C(C)C)c(=O)c(=O)cc-4c3=O)c(C)c(O)c2c1C(C)C	ATCC 96044	100 µg/mL	-	70.7%
CSc1ccc(C2CC(c3ccc(Br)cc3)=NN2c2ccccc2)cc1	NCIM 594	2000 µg/mL	broth dilution	28.2%
C/C(=N\c1n[nH]c(N)n1)c1ccccn1	-	200 µg/mL	agar diffusion / agar	44%
Cc1cc(C)nc(NS(=O)(=O)c2ccc(N=Cc3c[nH]c4ccccc34)cc2)n1	-	200 µg/mL	-	55%
CSc1ccc(C2CC(c3cccc([N+](=O)[O-])c3)=NN2c2ccccc2)cc1	NCIM 594	2000 µg/mL	broth dilution	18.98%
Nc1nc(/N=C/c2c([O-])ccc3ccccc23)n[nH]1.Nc1nc(/N=C/c2c([O-])ccc3ccccc23)n[nH]1.[O]=[V+2]	-	200 µg/mL	agar diffusion / agar	70%
NC(N)=NS(=O)(=O)c1ccc(N=Cc2c[nH]c3ccccc23)cc1	-	200 µg/mL	-	30%
COc1ccc(C2=NN(c3ccccc3)C(c3ccc(SC)cc3)C2)cc1OC	NCIM 594	2000 µg/mL	broth dilution	63.83%

A second listing of 2 rows from above:

structure | strain | tested at | read by | value
NC(N)=NS(=O)(=O)c1ccc(N=Cc2c[nH]c3ccccc23)cc1 | - | 200 µg/mL | - | 30%
COc1c(O)cc2c(c1C(C)C)C(=O)C(C)=C(C1=C(C)C(=O)c3c(cc(O)c(OC)c3C(C)C)C1=O)C2=O | ATCC 96044 | 100 µg/mL | - | 15.2%